Experimental data taken from the supplement of paper PMC12637763.
Substitutions are numbered along the chain they refer to. This is one part of the list. Env chains of viruses from a treatment-interruption trial, translated from the printed DNA. IC50 / IC80 of two broadly neutralizing antibodies; lower = more sensitive virus; >50 µg/ml means not reached and <0.001 µg/ml is below the lowest dose. No active / inactive call.

B1: HIV-1 Env, rebound clone, placebo arm (protein)
chain: MKVKGTRMNWQHLWRWGTLMLGLVIICNASNTNLWVTVYYGVPAWEDADTTLFCASDAKAYSTEKHNVWATHACVPTDPNPQEISLPNVTENFDMWKNNMVEQMHEDIISLWDESLKPCVKLTPLCVTLTCSDINITNSSNTTTTNGNNSMVDPEEIKNCTFNMTTEIIDKKKEEYALFYKLDIVQINNGNDSKDYRLINCNVSTIKQACPKVSFEPIPIHYCAPAGFAILKCKDKNFNGTGPCKNVSTVQCTHGIKPVVSTQLLLNGSLAEEDIVIRTKNITDNGNNIIVHLNESITINCTRPNNNTRKSIHLGQGQAFYATGAIIGDIRQAHCNVSGSQWINMIKRVAGKLKGVFSKNVTFNSSAGGDLEITTHSFNCGGEFFYCNTSNLFNSSILTSNNTNENITLPCKIRQIVRMWQTVGQAMYAPPIAGSIICTSNITGLILTRDGGSNETNGTDTFRPGGGNMKDNWRSELYKYKVVKIKPLGIAPTKARRRVVGREKRAIGVLGAALLGFLGTAGSTMGAASITLTVQVRQLLSGIVQQQSNLLRAIEAQQHLLQLTVWGIKQLQARVLAVERYLRDQQLLGIWGCSGKLICTTNVPWNASWSNKSYEEIWDNMTWIQWDREIDNYTQLIYSLIEESQNQQEKNEQDLLALDKWTSLWSWFDISNWLWYIRIFIIIVGGLIGLRIVFAVLSIVNRVRQGYSPLSLQTLLPHPPEADRPGEIEEGGGEQGRTRSIRLVNGFLALAWDDLRNLCLFLYHHLRDFILTAARTVETLGHRGWEILKYLGNLLCYWGQELKNSVINLLDTTAIAVGNWTDRFIELGQRVVRAVLHIPRRTRQGLERALL
B2: HIV-1 Env, rebound clone, placebo arm (protein)
chain: B1 chain with S193N, A695T
B3: HIV-1 Env, rebound clone, placebo arm (protein)
chain: B1 chain with E174Q, G190S, T842I, G845E
B4: HIV-1 Env, rebound clone, placebo arm (protein)
chain: MKVKGTRMNWQHLWRWGTLMLGLVIICNASNTNLWVTVYYGVPAWEDADTTLFCASDAKAYSTEKHNVWATHACVPTDPNPQEISLPNVTENFDMWKNNMVEQMHEDIISLWDESLKPCVKLTPLCVTLTCSDINITNSSNTTTTNGNSMVDPEEIKNCTFNMTTEIIDKKKQEYALFYKLDIVQINNGNDNKDYRLINCNVSTIKQACPKVSFEPIPIHYCAPAGFAILKCKDKNFNGTGPCKNVSTVQCTHGIKPVVSTQLLLNGSLAEEDIVIRTKNITDNGNNIIVHLNESITINCTRPNNNTRKSIHLGQGQAFYATGAIIGDIRQAHCNVSGSQWINMIKRVAGKLKGVFSKNVTFNSSAGGDLEITTHSFNCGGEFFYCNTSNLFNSSILTSNNTNENITLPCKIRQIVRMWQTVGQAMYAPPIAGSIICTSNITGLILTRDGGSNETNGTDTFRPGGGNMKDNWRSELYKYKVVKIKPLGIAPTKARRRVVGREKRAIGVLGAALLGFLGTAGSTMGAASITLTVQVRQLLSGIVQQQSNLLRAIEAQQHLLQLTVWGIKQLQARVLAVERYLRDQQLLGIWGCSGKLICTTNVPWNASWSNKSYEEIWDNMTWIQWDREIDNYTQLIYSLIEESQNQQEKNEQDLLALDKWTSLWSWFDISNWLWYIRIFIIIVGGLIGLRIVFAVLSIVNRVRQGYSPLSLQTLLPHPPEADRPGEIEEGGGEQGRTRSIRLVNGFLALAWDDLRNLCLFLYHHLRDFILTAARTVETLGHRGWEILKYLGNLLCYWGQELKNSVINLLDTTAIAVGNWTDRFIELGQRVVRAVLHIPRRIRQELERALL
B5: HIV-1 Env, rebound clone, placebo arm (protein)
chain: B1 chain with H105Q, E174K, L178F, G286D, I807V, N808S, T842V
B6: HIV-1 Env, rebound clone, placebo arm (protein)
chain: B1 chain with N28K, T144I, E174K, Y176F, N808T, T842V

How the values were obtained:
antibody 10-1074 [1] = test: neutralization IC50; higher = virus less sensitive to the antibody
Method: (§1)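 Pseudovirus bearing the Env chain mixed with antibody, from 50 µg/ml in fivefold dilutions, on TZM-bl reporter cells, in duplicate.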

antibody 3BNC117 [2] = test: as above
Method: as §1

antibody 10-1074 [3] = test: neutralization IC80; higher = virus less sensitive to the antibody
Method: as §1

antibody 3BNC117 [4] = test: as above
Method: as §1

Binder	neutralization IC50 (antibody 10-1074 [1]) [µg/mL]	neutralization IC50 (antibody 3BNC117 [2]) [µg/mL]	neutralization IC80 (antibody 10-1074 [3]) [µg/mL]	neutralization IC80 (antibody 3BNC117 [4]) [µg/mL]
B1	0.004	0.19	0.023	0.87
B2	0.003	0.174	0.02	0.783
B3	0.013	0.289	0.026	0.88
B4	0.006	0.188	0.013	0.813
B5	0.016	10.7	0.049	> 50
B6	0.01	0.228	0.031	0.767
